Compound potency records, mixed from different reports. Data source: NIAID ChemDB in PubChem.

Common to all: whole-cell or culture tests; species: Cryptococcus neoformans

Conditions beyond the fields shown may differ between rows.

structure	setting	read by	read-out	strain or isolate	value
CS(=O)(=O)N1CCC(n2cc(-c3nc(-c4ccc(Cl)cc4)n[nH]3)nn2)CC1	-	agar	MIC	-	>200 µg/mL
OC(Cn1cncn1)(Cn1nnc(CCN2CCN(C(c3ccccc3)c3ccccc3)CC2)n1)c1ccc(F)cc1F	-	-	MIC	LA314	>16 µg/mL
CC(C)=CCc1cc(O)c(O)c(CC=C(C)C)c1-c1oc2c(CC=C(C)C)c(O)cc(O)c2c(=O)c1O	-	-	MIC	ATCC 32264	>100 µg/mL
Cc1ccc(N2C(=O)C[C@@H](C)C2=O)cc1	-	broth dilution / turbidity	MIC	ATCC 32264	62.5 µg/mL
Clc1ccc(-c2n[nH]c(CN3CCc4sccc4C3)n2)cc1	-	agar	MIC	NCIM576	100 µg/mL
C[C@@H]1CC(=O)N(CCc2ccccc2)C1=O	-	broth dilution / turbidity	MIC	ATCC 32264	62.5 µg/mL
O=C1N[C@H](Cc2ccccc2)C(=O)N2CCC[C@H]12	-	broth dilution	MIC100	-	16 µg/mL
Oc1ccccc1N=Cc1ccc2c(c1)OCO2	-	-	MIC99	ATCC 28957	5.7 µg/mL
C[C@H](n1nnc(CCN2CCN(c3ccc(F)cc3)CC2)n1)[C@](O)(Cn1cncn1)c1ccc(F)cc1F	-	-	MIC	LA314	2 µg/mL
CCCCCOc1ccc(-c2ccc(-c3ccc(C(=O)N[C@H]4C[C@@H](O)[C@@H](O)NC(=O)[C@@H]5[C@@H](O)[C@@H](C)CN5C(=O)[C@H]([C@H](C)O)NC(=O)[C@H]([C@H](O)[C@@H](O)c5ccc(O)cc5)NC(=O)[C@@H]5C[C@@H](O)CN5C(=O)[C@H]([C@H](C)O)NC4=O)cc3)cc2)cc1	-	-	MIC	1041.007	>2 µg/mL
OC(Cn1cncn1)(Cn1cncn1)c1ccc(F)cc1F	-	agar	MIC	NCIM576	5 µg/mL
C[C@H](n1nnc(CCN2CCN(c3ccc(Cl)cc3)CC2)n1)[C@](O)(Cn1cncn1)c1ccc(F)cc1F	-	-	MIC	LA314	8 µg/mL
c1ccc(-c2n[nH]c(CN3CCc4sccc4C3)n2)cc1	-	agar	MIC	NCIM576	150 µg/mL
CNC1C(C)OC(O[C@H]2c3cc(C)c(C(=O)N[C@@H](CO)C(=O)O)c(O)c3-c3c(cc4c(c3O)C(=O)c3cc(OC)cc(O)c3C4=O)[C@@H]2O)C(O)C1OC1OCC(O)C(O)C1O	-	-	MIC	IAM 4514	0.8 µg/mL
Cc1ccccc1N1C(=O)CC(C)C1=O	-	broth dilution / turbidity	MIC	ATCC 32264	125 µg/mL
CCOC(=O)c1c(C)nc(NCCCCNc2ccnc3cc(Cl)ccc23)nc1-c1ccccc1[N+](=O)[O-]	-	-	MIC99	F-10	4 µg/mL
c1ccc(C(c2ccccc2)c2n[nH]c(CN3CCc4sccc4C3)n2)cc1	-	agar	MIC	NCIM576	>200 µg/mL
COc1cc(O)c2c(c1)C(=O)c1c(cc3c(c1O)-c1c(cc(C)c(C(=O)NC(CO)C(=O)O)c1O)[C@H](OC1OC(C)C(O)C(OC4OCC(O)C(O)C4O)C1O)C3O)C2=O	-	-	MIC	15 strains	2 µg/mL
CC1CC(=O)N(c2ccc(F)cc2)C1=O	-	broth dilution / turbidity	MIC	ATCC 32264	62.5 µg/mL
COc1cc(O)c2c(c1CC=C(C)C)O[C@H](c1c(CC=C(C)C)cc(OC)c(OC)c1CC=C(C)C)[C@@H](O)C2=O	-	-	MIC	ATCC 32264	>100 µg/mL
CCCSc1ccc2nc(NC(=O)OC)[nH]c2c1	48 h	-	MIC	93-175	≤0.6 µg/mL
Cc1nc(NCCCCNc2ccnc3cc(Cl)ccc23)nc(-c2ccccc2[N+](=O)[O-])c1C(=O)OC(C)C	-	-	MIC99	27JF	4 µg/mL
CN[C@H]1CC[C@@H](c2ccc(Cl)c(Cl)c2)c2ccccc21	-	broth dilution	MIC90	92BC2-45	6 µg/mL
Oc1cccc(C=Nc2ccccc2O)c1	-	broth dilution	MIC	96806	4 µg/mL
COc1ccc(NC2=C(Cl)C(=O)c3nc(C)sc3C2=O)cc1	-	broth dilution	MIC	KCCM 50564	6.3 µg/mL
CC(C)N=C(N)c1ccc2nc(-c3ccc4c(c3)Cc3cc(-c5nc6ccc(C(N)=NC(C)C)cc6[nH]5)ccc3-4)[nH]c2c1	-	-	MFC	H99	0.78 µg/mL
CS(=O)(=O)N1CCC(n2cc(-c3nc(-c4ccc([N+](=O)[O-])cc4)n[nH]3)nn2)CC1	-	agar	MIC	-	>200 µg/mL
C[C@@H]1CC(=O)N(c2ccc(Cl)cc2)C1=O	-	broth dilution / turbidity	MIC	ATCC 32264	31.3 µg/mL
CCC(C)CC(C)CCCCCCCCC(=O)N[C@H]1C[C@@H](O)[C@H](NCCN)NC(=O)[C@@H]2[C@@H](O)CCN2C(=O)[C@H]([C@H](O)CCN)NC(=O)[C@H]([C@H](O)[C@@H](O)c2ccc(O)cc2)NC(=O)[C@@H]2C[C@@H](O)CN2C(=O)[C@H]([C@@H](C)O)NC1=O	-	-	MIC	-	16 µg/mL
C[C@H]1[C@H](O)[C@@H](C)/C=C/C=C/C=C/C=C/C=C/C=C/C=C/[C@H](O[C@@H]2O[C@H](C)[C@@H](O)[C@H](N)[C@@H]2O)C[C@@H]2O[C@](O)(C[C@@H](O)C[C@@H](O)CC[C@H](O)[C@@H](O)C[C@@H](O)CC(=O)O[C@H]1C)C[C@H](O)[C@H]2C(=O)O	-	broth dilution	MIC100	-	4 µg/mL
Clc1ccccc1-c1n[nH]c(CN2CCc3sccc3C2)n1	-	agar	MIC	NCIM576	125 µg/mL
CCN1CCC(n2cc(-c3nc(-c4ccccc4)n[nH]3)nn2)CC1	-	agar	MIC	-	120 µg/mL
Oc1ccc(O)c(C=Nc2ccccc2O)c1	-	broth dilution	MIC	5396	11.3 µg/mL
C[C@@H]1C(=O)N(CCCc2ccccc2)C(=O)[C@@H]1C	-	broth dilution / turbidity	MIC	ATCC 32264	62.5 µg/mL
Oc1ccccc1N=Cc1ccc(O)c(O)c1O	-	-	MIC99	WP	11.3 µg/mL
O=C(c1ccc(Cl)cc1)N1CCC(n2cc(-c3nc(-c4ccccc4)n[nH]3)nn2)CC1	-	agar	MIC	-	100 µg/mL
Oc1ccccc1N=Cc1cccc(O)c1O	-	-	MIC99	ATCC 24067	4 µg/mL
COC(=O)c1c(N)oc2c1cc(O)c1sc(C)nc12	-	broth dilution	MIC	KCCM 50564	25 µg/mL
CC1C(=O)N(CCCc2ccccc2)C(=O)C1C	-	broth dilution / turbidity	MIC	ATCC 32264	125 µg/mL
Cc1nc2c(s1)C(=O)C(Nc1ccc(I)cc1)=C(Cl)C2=O	-	broth dilution	MIC	KCCM 50564	12.5 µg/mL
C[C@@H](c1ncncc1F)[C@](O)(Cn1cncn1)c1ccc(F)cc1F	-	-	MIC	ATCC 90113	0.06 µg/mL
CCc1c(OC)ccc2sc(C)nc12	-	broth dilution	MIC	KCCM 50564	>100 µg/mL
CS(=O)(=O)N1CCC(n2cc(-c3nc(-c4ccccc4)n[nH]3)nn2)CC1	-	agar	MIC	-	100 µg/mL

MIC50, MIC90 and the like: level of inhibition, or share of isolates inhibited. An empty or dashed field is not shown.